# RC index of single-base changes in HIV-1 RT

Reference: Al-Mawsawi et al. 2014, doi:10.1186/s12977-014-0124-6.

Protein: RT of HIV-1 NL4-3, numbered from its first residue.
Effects on overlapping genes or RNA elements are not listed.

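Random point mutant libraries of HIV-1 NL4-3, one for each of seven fragments, were passaged in CEM T lymphocytes. Sequencing gave the RC index: frequency after two rounds over frequency in the input plasmid.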

Values are the RC index; higher means better tolerated. The authors read about 0.1 or less as lethal, 0.1-0.2 as attenuated and 0.2 or more as tolerated.
Each entry names the wild-type residue, its position and the residue put in its place.
Nucleotide positions follow pNL4-3.

substitution | base | RC index
I482N | T3994A | 0.0543
I482S | T3994G | 0.0950
L484Q | T4000A | 0.0398
L484P | T4000C | 0.0637
L486W | T4006G | 0.106
L486F | G4007C | 0.188
Q487R | A4009G | 0.216
Q487H | G4010T | 0.0905
D488E | T4013A | 0.0298
G490R | G4017A | 0.300
G490V | G4018T | 0.207
E492K | G4023A | 2.22
E492G | A4024G | 0.0707
E492V | A4024T | 0.0295
V493A | T4027C | 0.162
N494D | A4029G | 0.0432
N494S | A4030G | 0.0496
N494K | C4031G | 0.0279
D498N | G4041A | 0.155
D498V | A4042T | 0.0564
S499P | T4044C | 0.100
Q500H | A4049T | 0.0374
Y501H | T4050C | 0.0874
Y501C | A4051G | 0.0400
Y501F | A4051T | 0.0326
A502E | C4054A | 0.0463
A502V | C4054T | 0.192
L503S | T4057C | 0.0659
Q507E | C4068G | 0.102
Q507H | A4070C | 0.178
A508T | G4071A | 0.105
Q509R | A4075G | 0.0682
Q509H | A4076T | 0.0359
D511Y | G4080T | 0.0916
D511G | A4081G | 0.0440
D511V | A4081T | 0.0134
K512T | A4084C | 0.0722
S513G | A4086G | 0.0570
S513C | A4086T | 0.0225
S513R | T4088G | 0.0886
E514K | G4089A | 0.722
E514Q | G4089C | 0.0928
E514G | A4090G | 0.0266
E514V | A4090T | 0.0401
S515T | T4092A | 0.0244
E516V | A4096T | 0.0431
E516D | G4097C | 0.0662
L517I | T4098A | 0.0531
V518D | T4102A | 0.0628
S519C | A4104T | 0.0250
S519I | G4105T | 0.0689
I521L | A4110T | 0.0558
I521T | T4111C | 0.100
I521R | T4111G | 0.0420
I521M | A4112G | 0.0570
I522V | A4113G | 0.968
I522L | A4113T | 0.0390
I522T | T4114C | 0.0546
I522M | A4115G | 0.128
E523K | G4116A | 0.424
L525S | T4123C | 0.157
I526L | A4125T | 0.0444
K527E | A4128G | 0.0698
K527N | A4130T | 0.0439
E529K | G4134A | 4.16
K530I | A4138T | 0.0811
K530N | A4139T | 0.0465
V531I | G4140A | 0.180
V531F | G4140T | 0.0529
V531D | T4141A | 0.0359
Y532N | T4143A | 0.0177
Y532C | A4144G | 0.0759
L533V | C4146G | 0.0352
L533P | T4147C | 0.0598
W535R | T4152A | 0.0477
W535R | T4152C | 0.0438
W535C | G4154T | 0.0592
V536E | T4156A | 0.0274
A538P | G4161C | 0.0894
A538S | G4161T | 0.0541
A538E | C4162A | 0.138
K540E | A4167G | 0.0352
G541E | G4171A | 0.883
I542V | A4173G | 0.0405
I542F | A4173T | 0.0325
I542S | T4174G | 0.137
G543R | G4176A | 0.347
G543E | G4177A | 0.454
G544R | G4179A | 0.372
N545Y | A4182T | 0.0662
N545K | T4184A | 0.0400
Q547K | C4188A | 0.306
V548I | G4191A | 0.176
D549Y | G4194T | 0.117
K550R | A4198G | 0.0602
K550I | A4198T | 0.0349
L551M | T4200A | 0.0619
L551S | T4201C | 0.0786
S553G | A4206G | 0.0621
S553T | G4207C | 0.0338
A554P | G4209C | 0.0551
I556V | A4215G | 0.0364
I556T | T4216C | 0.0432
R557S | G4220T | 0.120
V559L | G4224C | 0.0743
V559E | T4225A | 0.0537
L560I | C4227A | 0.0873
L560P | T4228C | 0.181

Clones carried about five changes per kilobase, which can drag down the index of neutral changes.
An index over 1, which the authors read as above wild type, was rare (1.9% of all changes in the genome).